{"source": "PubChem BioAssay AID1259414 (Drosophila RNAi Screening Center, 2018)", "purpose": "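Fly genes that alter Wolbachia amount inside host cells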 (primary screen)", "system": "Drosophila JW18 cells infected with Wolbachia", "reagents": "long dsRNA against Drosophila genes, 0.25 µg dsRNA per well of a 384-well plate", "time to read-out": "5 days", "challenge": "cells persistently infected with Wolbachia before knock-down; no added drug", "measured": "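Imaged fluorescence in situ signal for Wolbachia 23S rRNA per DAPI-counted host cell, given as a robust z-score within each plate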", "scale": "Wolbachia per cell robust z: higher = more Wolbachia per host cell than the plate typical", "active means": "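Active if absolute robust z reaches 1.5 in two or more of three replicates, leaving out multi- or no-target dsRNAs, genes unexpressed in JW18 and A1 wells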", "note": "In all, the deposit lists about 24,000 reagents; this is a random part of those that have a named target and a result. Over the whole deposit, about 1,210 (5%) were called active. 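Inactive calls also include excluded dsRNAs with several or no targets, genes unexpressed in JW18, and well A1, regardless of score.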"}
{"target": "snk", "amplicon": "DRSC17060", "Wolbachia per cell robust z, rep 1": -1.92, "Wolbachia per cell robust z, rep 2": 0.302, "Wolbachia per cell robust z, rep 3": -0.0339, "call": "inactive"}
{"target": "lncRNA:roX1", "amplicon": "DRSC21884", "Wolbachia per cell robust z, rep 1": -1.83, "Wolbachia per cell robust z, rep 2": -2.12, "Wolbachia per cell robust z, rep 3": -1.57, "call": "active"}
{"target": "Past1", "amplicon": "DRSC16784", "Wolbachia per cell robust z, rep 1": 0.759, "Wolbachia per cell robust z, rep 2": 0.512, "Wolbachia per cell robust z, rep 3": 0.464, "call": "inactive"}
{"target": "CG32241", "amplicon": "DRSC08100", "Wolbachia per cell robust z, rep 1": -10.1, "Wolbachia per cell robust z, rep 2": -1.42, "Wolbachia per cell robust z, rep 3": -0.16, "call": "inactive"}
{"target": "CG32241", "amplicon": "DRSC21518", "Wolbachia per cell robust z, rep 1": 0.953, "Wolbachia per cell robust z, rep 2": 0.753, "Wolbachia per cell robust z, rep 3": 0.851, "call": "inactive"}
{"target": "CG32241", "amplicon": "DRSC25178", "Wolbachia per cell robust z, rep 1": 0.99, "Wolbachia per cell robust z, rep 2": 0.697, "Wolbachia per cell robust z, rep 3": 1.45, "call": "inactive"}
{"target": "CG32241", "amplicon": "DRSC41291", "Wolbachia per cell robust z, rep 1": 1.36, "Wolbachia per cell robust z, rep 2": 1.02, "Wolbachia per cell robust z, rep 3": 0.0215, "call": "inactive"}

Limited to “Wolbachia per cell robust z, rep 1” (2 entries from above):
Past1 [DRSC16784] = 0.759
CG32241 [DRSC08100] = -10.1

Further records follow:
{"target": "CG11878", "amplicon": "DRSC14422", "Wolbachia per cell robust z, rep 1": 0.381, "Wolbachia per cell robust z, rep 2": 0.502, "Wolbachia per cell robust z, rep 3": 0.288, "call": "inactive"}
{"target": "CG11878", "amplicon": "DRSC24563", "Wolbachia per cell robust z, rep 1": -1.25, "Wolbachia per cell robust z, rep 2": 0.0342, "Wolbachia per cell robust z, rep 3": -1.01, "call": "inactive"}
{"target": "CG5910", "amplicon": "DRSC11786", "Wolbachia per cell robust z, rep 1": -4.11, "Wolbachia per cell robust z, rep 2": 0.551, "Wolbachia per cell robust z, rep 3": -0.5, "call": "inactive"}
{"target": "Samuel", "amplicon": "DRSC21731", "Wolbachia per cell robust z, rep 1": -0.0348, "Wolbachia per cell robust z, rep 2": -2.12, "Wolbachia per cell robust z, rep 3": -0.34, "call": "inactive"}
{"target": "Samuel", "amplicon": "DRSC23114", "Wolbachia per cell robust z, rep 1": 0.631, "Wolbachia per cell robust z, rep 2": 0.401, "Wolbachia per cell robust z, rep 3": -0.355, "call": "inactive"}
{"target": "HP1D3csd", "amplicon": "DRSC19548", "Wolbachia per cell robust z, rep 1": -0.1, "Wolbachia per cell robust z, rep 2": -3.05, "Wolbachia per cell robust z, rep 3": -3.24, "call": "active"}
{"target": "Mocs1", "amplicon": "DRSC11225", "Wolbachia per cell robust z, rep 1": -2.45, "Wolbachia per cell robust z, rep 2": -1.52, "Wolbachia per cell robust z, rep 3": 0.785, "call": "active"}
{"target": "qkr58E-3", "amplicon": "DRSC04711", "Wolbachia per cell robust z, rep 1": -0.6, "Wolbachia per cell robust z, rep 2": 0.381, "Wolbachia per cell robust z, rep 3": -5.1, "call": "inactive"}
{"target": "CG5676", "amplicon": "DRSC02875", "Wolbachia per cell robust z, rep 1": 0.257, "Wolbachia per cell robust z, rep 2": -0.134, "Wolbachia per cell robust z, rep 3": -0.408, "call": "inactive"}
